Pooled drug test results. Numbers come from NIAID ChemDB, via PubChem.

Shared fields: growth or infection tests

a–b is a range or a potency band.

smiles	cell line	dose	agent	method	strain	measure	value
C[C@H]1Cn2c(c(C(=O)NCc3ccccc3)n(-c3ccc(OC4CC4)cc3)c2=O)CN1C(=O)c1ccc(Br)c(Cl)c1	HepG2.117		Hepatitis B virus	PCR		EC50	0.1–0.5 µM
CCC(C)CC(C)CCCCCCCCC(=O)N[C@H]1C[C@@H](O)[C@H](NCCN)NC(=O)[C@@H]2[C@@H](O)CCN2C(=O)[C@H]([C@H](O)CCN)NC(=O)[C@H]([C@H](O)[C@@H](O)c2ccc(O)cc2)NC(=O)[C@@H]2C[C@@H](O)CN2C(=O)[C@H]([C@@H](C)O)NC1=O			Cryptococcus gattii	broth dilution	CBS 11752	MIC	32 µg/mL
O=C(NCc1ccccc1)c1c2n(c(=O)n1-c1ccccc1Cl)CCN(C(=O)c1ccc(Br)c(Cl)c1)C2	HepG2.117		Hepatitis B virus	PCR		EC50	0.5–5 µM
Nc1nc2c(ncn2CCC(CO)CO)c(=O)[nH]1	HEL		Varicella zoster virus	cytopathic effect	Clinical isolate VZV-22	EC50	6.44 µM
C=C/C(C)=C/[C@@]1(C)SC(=O)C(C)=C1O			Escherichia coli		SJ261 (emrB::Tn10 kan)	MIC	25 µM
Cn1cc(C(=O)NCc2ccc(Cl)cc2)c(=O)c2cc(CN3CCOCC3)ccc21	HFF	3.6 µM	Varicella zoster virus	plaque count	MO varicella isolate	inhibition	90%
O=C(O)c1ccc(S(=O)(=O)[O-])cc1C(=O)O	Human amnion AV3 cells	50 µg/mL	Herpes simplex virus	cytopathic effect		inhibition	10%
O=C(O)P(=O)(O)O	HEL		Varicella zoster virus	cytopathic effect	Oka CF1368-resistant	EC50	38.6 µM
O=C(Nc1ccc(S(=O)(=O)[O-])c2cccc(S(=O)(=O)[O-])c12)c1ccccc1	Human embryonic lung cells	10 µg/mL	Adenovirus	cytopathic effect	TYPE 3	inhibition	0%
Cc1cn([C@@H]2O[C@H](CO)[C@@H](O)[C@@H]2F)c(=O)nc1N	HELF	0.001 µg/mL	Varicella zoster virus	plaque count	Ohtomo	inhibition	52%
O=C(NCc1ccccc1)c1c2n(c(=O)n1-c1ccc(-n3cccn3)cc1)CCN(C(=O)c1ccc(Br)c(Cl)c1)C2	HepG2.117		Hepatitis B virus	PCR		EC50	0.1–0.5 µM
O=c1[nH]c(=O)n([C@H]2C[C@H](O)[C@@H](CO)O2)cc1/C=C/Br	HELF	0.1 µg/mL	Varicella zoster virus	plaque count	Kawaguchi	inhibition	100%
O=c1[nH]c(=O)n([C@H]2C[C@H](O)[C@@H](CO)O2)cc1I			Herpes simplex virus 1		CUT	MIC	0.5 µg/mL
CCC(CC)O[C@@H]1C=C(C(=O)O)C[C@H](N)[C@H]1NC(C)=O	MDCK		Influenza B virus	plaque count	Isolate G26	EC50	0.05 µg/mL
CCOC(=O)c1ccc(OCCC2CCN(c3ccc(C)nn3)CC2)cc1	KB		Rhinovirus	neutral red	CH79 (ICAM-1 receptor group 38)	EC50	0.027 µM
CO[C@H]1/C=C/O[C@@]2(C)Oc3c(C)c(O)c4c(O)c(c(/C=N/N5CCN(C6CCCC6)CC5)c(O)c4c3C2=O)NC(=O)/C(C)=C\C=C\[C@H](C)[C@H](O)[C@@H](C)[C@@H](O)[C@@H](C)[C@H](OC(C)=O)[C@@H]1C			Mycobacterium avium intracellulare		74	MIC	≤0.125 µg/mL
CC(C)CS[C@H]1C[C@@H](n2cnc3c(N)ncnc32)[C@H](O)[C@@H]1O	CV-1		Measles virus	cytopathic effect		EC50	100 µg/mL
Cc1cn([C@@H]2O[C@H](CO)[C@@H](O)[C@@H]2O)c(=O)[nH]c1=O	HELF	1 µg/mL	Varicella zoster virus	plaque count	OKA	inhibition	100%
Cc1cnnn1-c1ccc(-n2c(=O)c3c(n4ncc(Cc5ccccc5)c24)CN(C(=O)c2ccc(Br)c(C(F)(F)F)c2)CC3)cc1	HepG2.117		Hepatitis B virus	luminescence		EC50	≤0.05 µM
CCc1cn([C@@H]2O[C@H](CO)[C@@H](O)[C@@H]2O)c(=O)[nH]c1=O	HELF	1000 µg/mL	Varicella zoster virus	plaque count	HIRAI	inhibition	62%
O=C(O)c1cc(S(=O)(=O)[O-])ccc1O	Human amnion AV3 cells	5 µg/mL	Herpes simplex virus	cytopathic effect		inhibition	0%
C[C@@H](NC(=O)c1c2n(c(=O)n1-c1ccc(OC3CC3)cc1)C[C@H](C)N(C(=O)c1ccc(Br)c(Cl)c1)C2)c1ccccc1F	HepG2.117		Hepatitis B virus	PCR		EC50	0.1–0.5 µM
Nc1nc2c(ncn2COC(CO)CO)c(=O)[nH]1	MRC-5		Human cytomegalovirus	hybridisation	C9213	EC50	0.4 µM
C=CCc1ccc(O)c(OC)c1			Candida tropicalis	turbidity	2833	MIC90	475 µg/mL
Nc1ncnc2c1ncn2[C@@H]1C=C[C@@H](O)[C@H]1O	CV-1		Measles virus	neutral red	TN1994	EC50	0.1 µg/mL
O=C(NCc1ccccc1)c1c2n(c(=O)n1-c1ccc(OC(F)F)cc1)CCN(C(=O)c1ccc(Cl)c(Cl)c1)C2	HepG2.117		Hepatitis B virus	PCR		EC50	0.5–5 µM
CCCCCCCCOC(=O)[C@]1(O)C[C@@H](O)[C@@H](O)[C@H](OC(=O)/C=C/c2ccc(O)c(O)c2)C1			Aspergillus parasiticus	absorbance	UMIP 1142.76	MIC50	<500 µg/mL
Nc1nc(N)c2ncn(CCOCP(=O)(O)O)c2n1	HEL		Varicella zoster virus	cytopathic effect	Oka PFA-resistant/B	EC50	13.2 µM
CNC(=O)c1ccc(-n2c(=O)c3c(n4ncc(CC5CCC5)c24)CN(C(=O)c2ccc(Br)c(C(F)(F)F)c2)CC3)cc1	HepG2.117		Hepatitis B virus	luminescence		EC50	≤0.05 µM
Nc1nc(=O)n([C@@H]2O[C@H](CO)[C@@H](O)[C@@H]2F)cc1I	HELF	0.001 µg/mL	Varicella zoster virus	plaque count	KANNO	inhibition	0%
CCCC(CCC)C(NC(C)=O)C1CC(C(=O)O)CC1N=C(N)N	MDCK		Influenza B virus		Beijing/184/93	EC50	0.02 µM
Nc1ncnc2c1ncn2[C@@H]1C[C@H](Sc2ccccc2)[C@@H](O)[C@H]1O	CV-1		Measles virus	cytopathic effect		EC50	>100 µg/mL
COc1ccc(CN2C/C=C\Cn3c(c4n(c3=O)CCN(C(=O)c3ccc(Br)c(Cl)c3)C4)C2=O)cc1	HepG2.117		Hepatitis B virus	PCR		EC50	0.1–0.5 µM
Nc1ncnc2c1ncn2C=C1CC1CO			Human cytomegalovirus	plaque count	VR5120 (ganciclovir-resistant)	EC90	4.2 µM
Nc1nc2c(ncn2COC(CO)CO)c(=O)[nH]1	HEL		Varicella zoster virus	cytopathic effect	Oka CF1743-resistant	EC50	2.8 µM
C[C@@H]1Cc2c(n3ncc(CC4CC4)c3n(-c3ccc(-c4n[nH]nc4N)cc3)c2=O)CN1C(=O)c1ccc(Br)c(C(F)(F)F)c1	HepG2.117		Hepatitis B virus	luminescence		EC50	≤0.05 µM
O=C(NCc1ccccc1-c1cocn1)c1c2n(c(=O)n1-c1ccc(OCC(F)(F)F)cc1)CCN(C(=O)c1ccc(Br)c(Cl)c1)C2	HepG2.117		Hepatitis B virus	PCR		EC50	0.1–0.5 µM
O=S(=O)([O-])c1cc(O)c2ccccc2c1	Human embryonic lung cells	50 µg/mL	Adenovirus	cytopathic effect	TYPE 3	inhibition	0%
CC(C)Nc1nc2cc(Cl)c(Cl)cc2n1[C@H]1O[C@@H](CO)[C@H](O)[C@@H]1O	MRC-5		Human cytomegalovirus	hybridisation	8805REC1 (MET460VAL)	EC50	0.03 µM
Cc1nc(-c2ccc(-n3c(=O)c4c(n5ncc(Cc6ccccc6)c35)CN(C(=O)c3ccc(Br)c(Cl)c3)[C@H](C)C4)cc2)n[nH]1	HepG2.117		Hepatitis B virus	luminescence		EC50	≤0.05 µM
CCOC(=O)/C=C/[C@H](C[C@@H]1CCNC1=O)NC(=O)[C@@H](CC(=O)[C@@H](NC(=O)c1cc(C)on1)C(C)C)Cc1ccc(F)cc1	OHIO HELA-I		Rhinovirus	cytopathic effect / visual reading	Isolate 13	EC50	0.01 µg/mL
Nc1ncnc2c1ncn2[C@@H]1C[C@H](N)[C@@H](O)[C@H]1O	CV-1		Measles virus	cytopathic effect	X-1108	EC50	10 µg/mL
CCC(CC)[C@H](NC(C)=O)[C@@H]1C[C@@H](C(=O)O)C[C@H]1N=C(N)N	MDCK		Influenza A virus		Influenza A/Sydney/05/97 (H3N2)	EC50	0.13 µM
CCC(CC)[C@H](NC(C)=O)[C@@H]1[C@H](O)[C@@H](C(=O)O)C[C@H]1N=C(N)N	MDCK		Influenza A virus	visual reading	H1N1 A/NWS/33	EC50	8.9 µM
O=S(=O)(O)c1cccc2c(O)cccc12	Human amnion AV3 cells	10 µg/mL	Herpes simplex virus	cytopathic effect		inhibition	5%
CC1(C)N=C(N)N=C(N)N1OCCCOc1cc(Cl)c(Cl)cc1Cl			Mycobacterium avium complex		3176	MIC	1 µg/mL
NCS(=O)(=O)O	Human embryonic lung cells	10 µg/mL	Adenovirus	cytopathic effect	TYPE 3	inhibition	0%
CCCC(CCC)C(NC(C)=O)C1C(N=C(N)N)CC(C(=O)O)C1O	MDCK		Influenza A virus		Influenza A/Victoria/3/75 (H3N2)	EC50	0.07 µM
Nc1ncnc2c1ncn2C[C@@H](CO)OCP(=O)(O)O	HEL		Varicella zoster virus	cytopathic effect	Oka acyclovir-resistant	EC50	0.014 µM
O=C(Nc1ccc2c(O)c(N=Nc3ccc(N=Nc4ccc(S(=O)(=O)O)cc4)cc3)c(S(=O)(=O)O)cc2c1)c1ccccc1	Human embryonic lung cells	10 µg/mL	Adenovirus	cytopathic effect	TYPE 3	inhibition	15%

Repeating the first 4 entries:

smiles,cell line,dose,agent,method,strain,measure,value
C[C@H]1Cn2c(c(C(=O)NCc3ccccc3)n(-c3ccc(OC4CC4)cc3)c2=O)CN1C(=O)c1ccc(Br)c(Cl)c1,HepG2.117,,Hepatitis B virus,PCR,,EC50,0.1–0.5 µM
CCC(C)CC(C)CCCCCCCCC(=O)N[C@H]1C[C@@H](O)[C@H](NCCN)NC(=O)[C@@H]2[C@@H](O)CCN2C(=O)[C@H]([C@H](O)CCN)NC(=O)[C@H]([C@H](O)[C@@H](O)c2ccc(O)cc2)NC(=O)[C@@H]2C[C@@H](O)CN2C(=O)[C@H]([C@@H](C)O)NC1=O,,,Cryptococcus gattii,broth dilution,CBS 11752,MIC,32 µg/mL
O=C(NCc1ccccc1)c1c2n(c(=O)n1-c1ccccc1Cl)CCN(C(=O)c1ccc(Br)c(Cl)c1)C2,HepG2.117,,Hepatitis B virus,PCR,,EC50,0.5–5 µM
Nc1nc2c(ncn2CCC(CO)CO)c(=O)[nH]1,HEL,,Varicella zoster virus,cytopathic effect,Clinical isolate VZV-22,EC50,6.44 µM

Percent inhibition refers to the dose given; in toxicity tests it is the harm to the cells. A number after MIC or MFC names an inhibition level or a share of isolates. An empty or dashed field is not shown. Neighbouring rows are from separate reports. ECn is the concentration giving n% inhibition of infection, replication or growth.